Results as given in patent publication US20090143419A1, “METHODS AND COMPOSITIONS FOR CONTROLLING ECTOPARASITES” (HATCHTECH PTY LTD, priority 2005, published 2009).

System: lice eggs
Assay: Time-course in vitro lice egg hatching assay
Assay type: in vivo, clothing lice (Pediculus humanus humanus)
Settings: 5%; results not shown

Compound: OCCN(CCO)CCO
- effect on egg hatching: did not appear to have an effect
